# The entries are a selection whose mix differs from that of the whole data set. Inconclusive results are not listed. Calls of active or inactive are those of the source. No stated cut-off is given here; in the data, active means inhibition above about 35% (passing the limit was not always enough); inconclusive means no clear call, values can overlap the other calls.
# Tested on: Botulinum neurotoxin type F light chain protease (Clostridium botulinum)
# Test: BoNT/F light chain protease inhibitors, primary screen, biochemical, flow cytometry, MLPCN library (AID 588497); further: plate controls were buffer without enzyme for full effect and enzyme alone for no effect
# Settings: Multiplex microsphere protease cleavage assay, at 10 µM, hits give high values
row,SMILES,inhibition
1,O=P(Nc1ccccn1)(c1cccc2ccccc12)c1cccc2ccccc12,inactive: -0.2%
2,CCOC(=O)Nc1cccc([As](=O)(O)O)c1,inactive: 0.3%
3,COP(=O)(OC)N1CC1c1ccccc1 (stereo unspecified),inactive: -2.6%
4,CCCCOc1ccc(C(=O)NCC2(N3CCCCC3)CCCCC2)cc1OC,inactive: 1.5%
5,Cc1cc(SC(NC(=O)c2ccccc2)C(Cl)(Cl)Cl)nc(C(C)C)n1 (stereo unspecified),inactive: 6.8%
6,O=C(O)C(O)c1ccc(N(CCCl)CCCl)cc1 (stereo unspecified),inactive: -0.7%
7,CCOC(=O)Nc1ccc([As](=O)(O)O)c(O)c1,inactive: -1.7%
8,CC1CCNP(=O)(N(CCCl)CCCl)O1 (stereo unspecified),inactive: -3.2%
9,CC(C)NC(=O)NP(=O)(Oc1ccccc1)Oc1ccccc1,inactive: -2.6%
10,CCN(CC)C(=S)SC(NC=O)C(Cl)(Cl)Cl (stereo unspecified),inactive: -6.8%
11,O=C(OC1CN2CCC1CC2)c1cccc2[nH]cnc12 (stereo unspecified),inactive: -0.4%
12,O=[N+]([O-])c1cc([N+](=O)[O-])c(-c2ccn[nH]2)s1,inactive: -7.1%
13,ClCCSc1nnc(-c2cccnc2)o1,inactive: 3.3%
14,COC(=O)C1(C)COP(=O)(N2CCCCCC2)OC1 (stereo unspecified),inactive: 7.4%
15,CC(C)c1ccc(OP(=O)(Nc2ccccn2)Oc2ccccc2F)cc1 (stereo unspecified),inactive: -2.2%
16,Cc1ccc(OP(=O)(Nc2ccc([N+](=O)[O-])cn2)Oc2ccc(C)cc2)cc1,inactive: -16%

row,SMILES,inhibition
1,[N-]=[N+]=NC1CCCCC1NC(=O)c1cc([N+](=O)[O-])cc([N+](=O)[O-])c1 (stereo unspecified),inactive: -6.4%
2,Cc1ccc2nc3c(c(C)c2c1)CC(C(Cl)Cl)S3 (stereo unspecified),inactive: 2.2%
3,O=[As](O)(c1ccc(O)cc1)c1ccccc1O,inactive: -0.2%
4,C[As](=O)(O)c1cccc(C(=O)O)c1,inactive: 20.4%
5,O=[N+]([O-])c1ccc(-c2cc([N+](=O)[O-])c(O)c([N+](=O)[O-])c2)cc1,inactive: 4.1%
6,COc1cc(C(=O)NCC2(N3CCOCC3)CCCCC2)ccc1OCC(C)C,inactive: 2%
7,O=[N+]([O-])c1cc(Oc2ccc([N+](=O)[O-])cc2C(F)(F)F)cc([N+](=O)[O-])c1,inactive: -2.9%
8,COc1ccc(N/C(=N/P(=O)(N2CCOCC2)N2CCOCC2)N2CCOCC2)cc1,inactive: 3.2%
9,O=P1(N(CCCl)CCCl)OCCCN1CCCl (stereo unspecified),inactive: -2.1%
10,O=P1(N(CCCl)CCCl)Nc2ccccc2N1,inactive: -6.4%
11,COc1ccc2nc(NP(=O)(c3ccccc3)c3ccccc3)sc2c1,inactive: -4.6%
12,COc1cc(I)ccc1[As](=O)(O)O,inactive: -3.2%
13,Cc1c2c(nc3ccccc13)SC(C(Cl)Cl)C2 (stereo unspecified),inactive: -2.7%
14,O=C(OC1CN2CCC1CC2)C12CC3CC(CC(C3)C1)C2 (stereo unspecified),inactive: 5.6%
15,Cc1cc(=O)[nH]c(N[N+](=O)[O-])n1,inactive: 0%
